System: mixed bacterial population comprised of Staphylococcus aureus, Enterobacter aerogenes and Pseudomonas aeruginosa
Test: Short contact suspension screen (contact disinfectant)
Conditions: 10 min exposure

Benzalkonium Chloride
% REDUCTION (50 ppm): 83.44%
% REDUCTION (100 ppm): 86.29%
% REDUCTION (250 ppm): 99.68%
% REDUCTION (500 ppm): 99.99%
